In PMC11847361, “Design and screening of novel molecular compounds targeting lactate dehydrogenase of Babesia microti” (Parasites & Vectors, 2025):

System: Vero cells
Format: cell-based
Settings: Vero CC50 versus B. microti IC50
Experimental: The mycoplasma-free Vero cell line (ATCC-CCL-81, immortalized cells) was cryopreserved in liquid nitrogen with DMSO at the National Key Laboratory of Agricultural Microbiology, Huazhong Agricultural University, China. The cytotoxicity of compounds TA and TB was assessed in Vero cells using the CCK-8 assay (Vazyme). Briefly, Vero cells (100 µL, 10,000 cells/well) were cultured in Dulbecco’s modified Eagle medium (DMEM) supplemented with 10% fetal bovine serum (FBS) and 100 U/mL penicillin–streptomycin at 37 ℃ with 5% CO2 for 24 h. The cells were then treated with varying concentrations of TA (2000, 1000, 500, 250, and 125 μM) or TB (800, 400, 200, 100, and 50 μM) for 72 h. After the treatment period, the medium containing TA and TB was replaced with fresh medium. Subsequently, 10 µL of CCK-8 solution was added to each well, and the plate was incubated for an additional 3 h. Absorbance was measured at 450 nm using a multifunctional enzyme marker (Envision, PE, USA). Stock solutions of TA and TB were prepared at a concentration of 100 mM in absolute ethanol. Doxorubicin hydrochloride at 40 µM served as the positive control, while 2% absolute ethanol served as the negative control. The concentration required to achieve 50% cytotoxicity (CC50) values were calculated using GraphPad Prism 8, and all cytotoxicity assays were performed in triplicate.

Row | SMILES | SI (selection index)
1 | O=C(O)c1ccccc1Cc1ccc2ccc(O)cc2c1 [TA] | 8.5
2 | O=C(O)c1cccc(-c2ccc3ccc(O)cc3c2)c1 [TB] | 3.9
